Reference: US20230310414A1

Test system: SARS-CoV-2 Spike (S) protein treated human macrophages
Test: cell viability of Spike protein treated human macrophages
Details: nanomolar concentrations, within 2 hours of treatment

## O.O=C(OC[C@H]1O[C@@H](OC(=O)c2cc(O)c(O)c(O)c2)[C@H](OC(=O)c2cc(O)c(O)c(O)c2)[C@@H](OC(=O)c2cc(O)c(O)c(O)c2)[C@@H]1OC(=O)c1cc(O)c(O)c(O)c1)c1cc(O)c(O)c(O)c1
  cell viability of treated macrophages: without compromising cell viability
